Results of unrelated studies side by side (data: NIAID ChemDB).

All rows: growth or infection tests; species: Mycobacterium tuberculosis

ECn: concentration that inhibits the pathogen or its effect by n%. Two numbers with a dash give a range or band. MIC50, MIC90 and the like: level of inhibition, or share of isolates inhibited. Inhibition is in % at the dose shown (toxicity tests: loss of growth or viability). MIC bound comes from a single tested concentration. An empty or dashed field is not shown. Zones are inhibition diameters on agar. Rows are shuffled and stem from different studies.

compound	read by	measure	dose	strain or isolate	setting	cell line	result
C[C@@H](CO)C1=C(O)c2ccc3c(c2C(=O)C1=O)CCCC3(C)C	resazurin	MIC bound		H37Rv			>6.25 µg/mL
O=C1NC(=NCc2ccc(F)cc2)N/C1=C\c1c(Cl)cccc1Cl		inhibition	12.5 µg/mL	H37Rv			5%
CC(=O)c1c(C)n([O-])c2ccc(Cl)cc2[n+]1=O		EC50		H37Rv	inside macrophages		<2.44 µg/mL
N#C/C(=C/c1cccc(Cl)c1)n1nnc2ccccc21		MIC50		ATCC 27294			51.2 µM
Clc1ccccc1C(c1ccccc1)(c1ccccc1)n1ccnc1		MIC90		ATCC 35828 (pyrazinamide-resistant)			≥100 µM
CCOC(=O)Nc1cc2[nH]c(-c3ccc(OC)cc3)nc2c(N(CCc2ccccc2)Cc2ccccc2)n1		EC50		H37Rv			<12.5 µg/mL
CO[C@H]1/C=C/O[C@@]2(C)Oc3c(C)c(O)c4c(O)c(c(/C=N/N5CCN(C)CC5)c(O)c4c3C2=O)NC(=O)/C(C)=C\C=C\[C@H](C)[C@H](O)[C@@H](C)[C@@H](O)[C@@H](C)[C@H](OC(C)=O)[C@@H]1C		MIC90		ATCC 35837 (ethambutol-resistant)			1 µM
NC1CCN(c2c(F)cc3c(=O)c(C(=O)O)cn(C4CC4)c3c2Cl)C1		MIC		ATCC 35827			0.125 µg/mL
NNC(=O)c1ccncc1		MIC50		27 strains (levofloxacin-susceptible)			0.1 µg/mL
O=C(O)c1cn(C2CC2)c2c(F)c(N3CCSCC3)c(F)cc2c1=O		MIC		CSU26			4 µg/mL
CN(C)CC(O)CN1c2ccccc2Sc2ccc(Cl)cc21.Cl	BACTEC	MIC bound		H37Rv			>12.5 µg/mL
CCOC(=O)Nc1cc(NCC(O)CN(C)c2ccc(OC)cc2)c([N+](=O)[O-])c(N)n1		inhibition	12.5 µg/mL	H37Rv			0%
Fc1ccc(-c2c(C(c3ccccc3)n3ccnc3)cnn2-c2ccc(F)cc2F)cc1		MIC90		ATCC 35822 (isoniazid-resistant)			≥100 µM
O=C1NC(Nc2cccc(Cl)c2)=N/C1=C\c1ccccc1Cl		MIC		H37Rv			>12.5 µg/mL
CCC(C)N(C(=S)Nc1ccccc1)c1ccc(Cl)c(Cl)c1	visual reading	zone	1000 µg/mL				10.51 mm
Cn1cc(NC(=O)c2cc(NC(=O)CN=C(N)N)cn2C)cc1C(=O)NCCC(=N)N	resazurin	inhibition	6.25 µg/mL	H37Rv			100%
CC(=O)c1c(CN2CCN(c3ccc([N+](=O)[O-])cc3)CC2)n([O-])c2cc(C)c(C)cc2[n+]1=O	BACTEC	EC50		H37Rv			>6.25 µg/mL
CCN.CCNC(=S)S	BACTEC	MIC bound		H37Rv			>12.5 µg/mL
C[C@@H]1CN(c2c(F)c(N)c3c(=O)c(C(=O)O)cn(C4CC4)c3c2F)C[C@H](C)N1		MIC		CSU22			≤0.125 µg/mL
CC(=O)c1c(C)n([O-])c2ccccc2[n+]1=O	BACTEC	MIC		H37Rv		VERO	3.13 µg/mL
CC(=O)Nc1ccc(S(=O)(=O)N/N=C/c2c(O)ccc3ccccc23)cc1	BACTEC	MIC bound		H37Rv			>12.5 µg/mL
Clc1ccc(-c2c(C(c3ccccc3)n3ccnc3)cnn2-c2ccc(Cl)cc2Cl)cc1		MIC90		ATCC 35820 (streptomycin-resistant)			≥100 µM
COc1ccc2c(c1)[n+](=O)c(C(=O)c1ccccc1)c(C)n2[O-]	BACTEC	inhibition	6.25 µg/mL	H37Rv			32%
CCC(C)N(C(=S)Nc1ccccc1)c1ccc(F)c(Cl)c1	visual reading	MIC					400 µg/mL
Cc1ncc(C(C)(O)c2ccc(Cl)cc2)n1Cc1ccccc1	resazurin	inhibition	6.25 µg/mL	H37Rv			6%
CC[C@H]1OC(=O)[C@H](C)[C@@H](O[C@H]2C[C@@](C)(OC)[C@@H](O)[C@H](C)O2)[C@H](C)[C@@H](O[C@@H]2O[C@H](C)C[C@H](N(C)C)[C@H]2O)[C@](C)(O)C[C@@H](C)C(=O)[C@H](C)[C@@H](O)[C@]1(C)O		MIC90		MDR			>8 µg/mL
COC(=O)C1(c2ccc(N(C)C)cc2OC)CCCN(C(=O)Oc2ccccc2[N+](=O)[O-])CCc2c1[nH]c1ccccc21	resazurin	MIC bound		H37Rv			>6.25 µg/mL
Fc1ccc(N(Cc2ccco2)C(=S)Nc2ccccc2)cc1Cl	visual reading	zone	1000 µg/mL				17.81 mm
N#C/C(=C\c1ccc(Cl)cc1Cl)n1nnc2ccccc21		MIC50		ATCC 27294			>100 µM
Cc1ccc(-c2cc[n+]3c(n2)oc2ccccc23)cc1.[I-]	BACTEC	MIC bound		H37Rv			>12.5 µg/mL
C[C@H]1COc2c(N3CCN(C)CC3)c(F)cc3c(=O)c(C(=O)O)cn1c23		MIC		CSU18			≤0.125 µg/mL
COc1ccccc1N1CCN(Cc2c(C(C)=O)[n+](=O)c3ccccc3n2[O-])CC1	BACTEC	inhibition	6.25 µg/mL	H37Rv			0%
Fc1ccc(-c2c(C(c3ccccc3)n3ccnc3)cnn2-c2ccc(F)cc2)cc1		MIC90		ATCC 35828 (pyrazinamide-resistant)			≥100 µM
O=c1c(-c2ccc(O)cc2)coc2cc(O)cc(O)c12	BACTEC	MIC bound		H37Rv			>12.5 µg/mL
CC(=O)NC[C@H]1CN(c2ccc(N3CCN(c4ccc([N+](=O)[O-])s4)CC3)c(F)c2)C(=O)O1		MIC		M-164			0.5 µg/mL
CC1CN(c2c(F)cc3c(=O)c(C(=O)O)cn(C4CC4)c3c2F)CCN1		MIC		CSU26			0.25 µg/mL
CO[C@H]1/C=C/O[C@@]2(C)Oc3c(C)c(O)c4c(=O)c(c5oc6cc(N7CCN(CC(C)C)CC7)cc(=O)c6nc5c4c3=C2O)NC(=O)/C(C)=C\C=C\[C@H](C)[C@H](O)[C@@H](C)[C@@H](O)[C@@H](C)[C@H](OC(C)=O)[C@@H]1C		MIC		50 (rifampicin-resistant)			0.125 µg/mL
CCOC(=O)Nc1cc(OCC)c2nc(-c3ccccc3)c(-c3ccccc3)nc2n1		EC50		H37Rv			<12.5 µg/mL
CO[C@H]1/C=C/O[C@@]2(C)Oc3c(C)c(O)c4c(O)c(c5c(c4c3C2=O)NC2(CCN(CC(C)C)CC2)N=5)=NC(=O)/C(C)=C\C=C\[C@H](C)[C@H](O)[C@@H](C)[C@@H](O)[C@@H](C)[C@H](OC(C)=O)[C@@H]1C		MBC		2831 (rifampin-sensitive)			0.05 µg/mL
CC(C)N(C(=S)Nc1ccccc1)c1ccc(F)c(Cl)c1	visual reading	zone	1000 µg/mL				10.06 mm
NC[C@H]1O[C@H](O[C@H]2[C@H](O)[C@@H](O[C@H]3O[C@H](CO)[C@@H](O)[C@H](N)[C@H]3O)[C@H](N)C[C@@H]2N)[C@H](O)[C@@H](O)[C@@H]1O		MIC		TN933 (CB)			32 µg/mL
CCOC(=O)Nc1cc(N)c([N+](=O)[O-])c(NCC(CN(C)c2ccc(NC)cc2)=NC)n1		inhibition	12.5 µg/mL	H37Rv			0%
Fc1ccccc1-c1c(C(c2ccccc2)n2ccnc2)cnn1-c1ccccc1F		MIC90		ATCC 35820 (streptomycin-resistant)			≥100 µM
CCc1nnc2sc3c(Cl)c4nn5c(CC)nnc5sc4c(Cl)c3nn12	BACTEC	MIC		H37Rv			≥12.5 µg/mL
CCOC(=O)Nc1cc(N)c([N+](=O)[O-])c(NCC(C)=O)n1		EC50		H37Rv			<12.5 µg/mL
Fc1ccccc1-n1ncc(C(c2ccccc2)n2ccnc2)c1-c1ccccc1		MIC90		ATCC 35820 (streptomycin-resistant)			≥100 µM
C[N+](C)(C)CCOC(=O)/C=C/c1cnc[nH]1.[OH-]	BACTEC	MIC		H37Rv			≥12.5 µg/mL
O=C1NC(=NCc2ccc(F)cc2)N/C1=C\c1ccccc1Cl		MIC		H37Rv			>6.25 µg/mL
NNC(=O)c1ccncc1		MIC		Isolate V			0.015 µg/mL
C[C@H]1COc2c(N3CCN(C)CC3)c(F)cc3c(=O)c(C(=O)O)cn1c23		MBC		ATCC 35820			0.5 µg/mL
c1cc2c(cc1[C@H]1OC[C@H]3[C@@H]1CO[C@H]3c1ccc3c(c1)OCO3)OCO2	BACTEC	MIC		H37Rv			64 µg/mL
Cc1c(C(=O)c2ccccc2)[n+](=O)c2ccccc2n1[O-]	BACTEC	inhibition	6.25 µg/mL	H37Rv		VERO	98%
CN(C)CCNc1cccc2oc3ccc(O)cc3c(=O)c12	BACTEC	MIC bound		H37Rv			>12.5 µg/mL
CNC(=S)N(c1ccc(Cl)c(Cl)c1)C1CCCCC1	visual reading	MIC					400 µg/mL
CC(=O)c1c(COc2ccccc2)n([O-])c2ccccc2[n+]1=O	BACTEC	inhibition	6.25 µg/mL	H37Rv		VERO	96%
CCOC(=O)Nc1cc2[nH]c(-c3ccccc3)nc2c(N(CCc2ccccc2)Cc2ccccc2)n1		EC50		H37Rv			<12.5 µg/mL
O=C1NC(Nc2ccccc2)=N/C1=C\c1ccccc1Cl		inhibition	12.5 µg/mL	H37Rv			93%
N#C/C(=C\c1ccccc1C(F)(F)F)n1nnc2ccccc21		MIC90		ATCC 27294			65.8 µM
O=NN1CCNC1=O	BACTEC	MIC bound		H37Rv			>12.5 µg/mL
CC1COc2c(N3CCN(C)CC3)c(F)cc3c(=O)c(C(=O)O)cn1c23		MIC50		ATCC 27294			0.7 µM
CC1COc2c(N3CCN(C)CC3)c(F)cc3c(=O)c(C(=O)O)cn1c23		MIC		891207			0.5 µg/mL
CCOC(=O)Nc1nn(-c2ccc3ccccc3n2)c(=O)[nH]1	BACTEC	inhibition	12.5 µg/mL	H37Rv			-15%
C[C@H]1C[C@H](N)CN1c1cc2c(cc1F)c(=O)c(C(=O)O)cn2-c1ccc(F)cc1F		MIC		ATCC 35827			2 µg/mL
CCOc1ccc(-c2oc(/C=N/NS(=O)(=O)c3ccc(C)cc3)c([N+](=O)[O-])c2-c2ccc(OCC)cc2)cc1	BACTEC	inhibition	12.5 µg/mL	H37Rv			-6%
Clc1ccccc1-c1c(C(c2ccccc2)n2ccnc2)cnn1-c1ccccc1		MIC90		ATCC 35820 (streptomycin-resistant)			>100 µM
C[C@H]1COc2c(N3CCN(C)CC3)c(F)cc3c(=O)c(C(=O)O)cn1c23		MIC90		22 strains (rifampin- isoniazid-resistant)			6.25 µg/mL
C=CCCN(c1ccc(C(=O)NC(CCC(=O)OCC)C(=O)OCC)cc1)S(=O)(=O)c1ccc(C)cc1	BACTEC	inhibition	12.5 µg/mL	H37Rv			-11%
CC/C(=C(\c1ccccc1)c1ccc(OCCN(C)C)cc1)c1ccccc1	resazurin	MIC		H37Rv			3.125–6.25 µg/mL
CO[C@H]1/C=C/O[C@@]2(C)Oc3c(C)c(O)c4c(O)c(c(/C=N/N5CCN(C6CCCC6)CC5)c(O)c4c3C2=O)NC(=O)/C(C)=C\C=C\[C@H](C)[C@H](O)[C@@H](C)[C@@H](O)[C@@H](C)[C@H](OC(C)=O)[C@@H]1C		MIC		Isolate 900145 drug-susceptible			0.125 µg/mL
NCC[C@H](O)C(=O)N[C@@H]1C[C@H](N)[C@@H](O[C@H]2O[C@H](CN)[C@@H](O)[C@H](O)[C@H]2O)[C@H](O)[C@H]1O[C@H]1O[C@H](CO)[C@@H](O)[C@H](N)[C@H]1O	broth dilution / resazurin	MIC		MDR13			16 µg/mL
O=C(CCCCCCCCC(=O)NN1C(=O)/C(=C\c2ccc(O)c(O)c2)SC1c1c(O)ccc2ccccc12)NN1C(=O)/C(=C\c2ccc(O)c(O)c2)SC1c1c(O)ccc2ccccc12	resazurin	MIC bound		H37Rv			>6.25 µg/mL
CO[C@H]1/C=C/O[C@@]2(C)Oc3c(C)c(O)c4c(O)c(c(/C=N/N5CCN(C/C=C/c6ccccc6)CC5)c(O)c4c3C2=O)NC(=O)/C(C)=C\C=C\[C@H](C)[C@H](O)[C@@H](C)[C@@H](O)[C@@H](C)[C@H](OC(C)=O)[C@@H]1C		MBC		3064 (rifampin-sensitive)			0.2 µg/mL
CC(=O)c1c(C)n([O-])c2ccc(C)cc2[n+]1=O		MIC		H37Rv	inside macrophages		3.13 µg/mL
O=C(NC(=S)c1ccc(Br)cc1)NS(=O)(=O)c1ccc(Cl)cc1		MIC bound		H37Rv			>6.25 µg/mL
N#C/C(=C\c1cccc([N+](=O)[O-])c1)n1nnc2ccccc21		MIC90		ATCC 27294			>100 µM
CCCC(=O)OCc1cc(=O)n(C)c2c3c4c(cc12)c(C)cc(=O)n4CO3		MIC		INH-r			0.4 µg/mL
COc1c(N2CCNC(C)C2)c(F)cc2c(=O)c(C(=O)O)cn(C3CC3)c12		MIC50		18 strains (levofloxacin-resistant)			0.78 µg/mL

5 of the rows above, restated:

compound | read by | measure | dose | strain or isolate | setting | cell line | result
NNC(=O)c1ccncc1 |  | MIC |  | Isolate V |  |  | 0.015 µg/mL
NNC(=O)c1ccncc1 |  | MIC50 |  | 27 strains (levofloxacin-susceptible) |  |  | 0.1 µg/mL
CCOC(=O)Nc1cc(OCC)c2nc(-c3ccccc3)c(-c3ccccc3)nc2n1 |  | EC50 |  | H37Rv |  |  | <12.5 µg/mL
C[C@@H]1CN(c2c(F)c(N)c3c(=O)c(C(=O)O)cn(C4CC4)c3c2F)C[C@H](C)N1 |  | MIC |  | CSU22 |  |  | ≤0.125 µg/mL
CO[C@H]1/C=C/O[C@@]2(C)Oc3c(C)c(O)c4c(O)c(c(/C=N/N5CCN(C6CCCC6)CC5)c(O)c4c3C2=O)NC(=O)/C(C)=C\C=C\[C@H](C)[C@H](O)[C@@H](C)[C@@H](O)[C@@H](C)[C@H](OC(C)=O)[C@@H]1C |  | MIC |  | Isolate 900145 drug-susceptible |  |  | 0.125 µg/mL